Measurements reported in publication PMC8539640, “Unraveling Protein Interactions between the Temperate Virus Bam35 and Its Bacillus Host Using an Integrative Yeast Two Hybrid–High Throughput Sequencing Approach” (2021).

Columns and labels:
[1] = target: Bam35 P15 (special vertex, suggested), bait pBN_15 (Bacillus virus Bam35)
[2] = target: Bam35 P16 (DNA packaging, suggested), bait pBN_16 (Bacillus virus Bam35)
[3] = target: Bam35 P27 (unknown function), bait pBN_27 (Bacillus virus Bam35)
[4] = target: Bam35 P19 (DNA packaging, suggested), bait pBN_19 (Bacillus virus Bam35)

In the case of “B. thuringiensis HER1410 enterotoxin/SH3 domain protein (Iap), full length, prey pPC_iap(27190)”, the Max. 3AT (mM) (B35ORF BtORF) [1] is reported as 25 mM, the Max. 3AT (mM) (B35ORF BtORF) [2] is reported as 25 mM and the Max. 3AT (mM) (B35ORF BtORF) [3] is reported as 50 mM. The Max. 3AT (mM) (B35ORF BtORF) [4] was 50 mM.
